Experimental data taken from US12569473B2, “Methods to treat respiratory infection utilizing castanospermine analogs” (60 Degrees Pharmaceuticals, Inc., priority 2022, dated 2026).
Structures can show the parent of a compound that is named as a salt.

Test system: RSV strain A2
Experiment: CPE inhibition assay, visual examination, RSV
Type: cell-based
Conditions: for SI50: visual examination, RSV, S.I. = 50% cytotoxic dose / EC50
Protocol: The efficacy of celgosivir and castanospermine against RSV and human rhinovirus-14 was assessed in vitro. For RSV studies, embryonic African green monkey kidney cells (MA-104) were grown in minimal essential medium (MEM) supplemented with 0.1% NaHCO3 and 10% fetal bovine serum. When performing antiviral assays, serum was reduced to 2% and […] gentamicin was added to the medium. RSV strain A2 was used for the studies. For rhinovirus studies, the HeLa Ohio cell line was used in place of MA-104 cells.
CPE inhibition assays with visual quantification of antiviral activity and cytotoxicity were performed as described by Sidwell and Huffman (1971) with slight modifications. Sidwell, R. W. and Huffman, J. H. (1971) Use of disposable micro-tissue culture plates for antiviral and interferon induction studies. Appl. Microbiol. 22, […]. […] All compounds were assayed for virus inhibition in quadruplicate and for cytotoxicity in duplicate. For rhinovirus studies, Pirodavir was applied at a concentration of 0.001-1 μg/ml as the positive control compound. For RSV studies, the positive control compound was Ribavirin applied at a concentration of 0.5-500 μg/ml. For each compound, two wells were set aside as uninfected, untreated cell controls per test and four wells per test received virus only and represented controls for virus replication. […] For all CPE-based assays, the 50% effective concentration (EC50) was calculated by regression analysis using the means of the CPE ratings at each concentration of compound. Morphological changes due to compound cytotoxicity were graded on a scale of 0-5; grade 5 was defined as 100% cytotoxicity. The 50% cytotoxic dose (IC50) was calculated by regression analysis. A selective index (S.I.) was calculated for each compound (SI.=(IC50)/(EC50)).

| Compound | SI50 against RSV | SI50 |
| --- | --- | --- |
| CCCC(=O)O[C@H]1CN2CC[C@H](O)[C@@H]2[C@@H](O)[C@@H]1O [Celgosivir HCL] | at least 8.1 | >8.1 |
| NC(=O)c1ncn([C@@H]2O[C@H](CO)[C@@H](O)[C@H]2O)n1 [Ribavirin, reference compound] |  | 85 |
